Anti-infective test results gathered from many reports (values: NIAID ChemDB through PubChem).

Common to all: growth or infection tests; species: Aspergillus niger; method: agar diffusion; read-out: zone

Zones are inhibition diameters on agar.

structure	strain or isolate	tested at	result
CS(=O)(=O)c1nc(N)c(C#N)c(-c2cccc([N+](=O)[O-])c2)n1	MTCC 282	100 µg/mL	20 mm
Fc1ccc(NCc2cc3ccccc3nc2Cl)cc1Cl	MTCC 281	200 µg/mL	17.76 mm
CC1(C)CC(=O)C2=C(C1)OC1=C(C(=O)CC(C)(C)C1)C2c1ccc(C2C3=C(CC(C)(C)CC3=O)OC3=C2C(=O)CC(C)(C)C3)cc1	ATCC 10949	40 µg/disc	0 mm
CN(C)c1ccc(/C=C(\C#N)c2ccc([N+](=O)[O-])cc2)cc1		100 µg	0 mm
Clc1cccc(NCc2cc3ccccc3nc2Cl)c1	MTCC 281	200 µg/mL	13.4 mm
O=C1CCCC2=C1C(c1ccc(C3C4=C(CCCC4=O)OC4=C3C(=O)CCC4)cc1)C1=C(CCCC1=O)O2	ATCC 10949	40 µg/disc	0 mm
CS(=O)(=O)C1=NC(c2cccc3cc4ccccc4cc23)C(C#N)=C(N)N1	MTCC 282	100 µg/mL	20 mm
O=C(NN1C(=O)CSC1C1C(c2ccccc2)=Nc2ccccc21)N1c2ccccc2C=Cc2ccccc21	MTCC 281	1000 µg/mL	3 mm
Clc1nc2ccccc2cc1CNc1ccccc1	MTCC 281	200 µg/mL	11.97 mm
O=C(NN=CC1C(c2ccccc2)=Nc2ccc(Cl)cc21)N1c2ccccc2C=Cc2ccccc21	MTCC 281	1000 µg/mL	13 mm
N#C/C(=C\c1ccc(Cl)cc1)c1ccc([N+](=O)[O-])cc1		100 µg	0 mm
CC1(C)CC(=O)C2=C(C1)OC1=C(C(=O)CC(C)(C)C1)C2c1cccc(C2C3=C(CC(C)(C)CC3=O)OC3=C2C(=O)CC(C)(C)C3)c1	ATCC 10949	20 µg/mL	0 mm
CC[C@H]1OC(=O)[C@H](C)[C@@H](O[C@H]2C[C@@](C)(OC)[C@@H](O)[C@H](C)O2)[C@H](C)[C@@H](O[C@@H]2O[C@H](C)C[C@H](N(C)C)[C@H]2O)[C@](C)(O)C[C@@H](C)CN(C)[C@H](C)[C@@H](O)[C@]1(C)O		25 µg	18 mm
O=C(NN=CC1C(c2ccccc2)=Nc2ccccc21)N1c2ccccc2C=Cc2ccccc21	MTCC 281	500 µg/mL	5 mm
N#C/C(=C\c1ccc(Br)cc1)c1ccccc1		100 µg	0 mm
CC1(C)CCC2=C(C1=O)C(c1ccc(C3C4=C(CCC(C)(C)C4=O)OC4=C3C(=O)C(C)(C)CC4)cc1)C1=C(CCC(C)(C)C1=O)O2	ATCC 10949	20 µg/mL	0 mm
N#C/C(=C\c1ccccc1)c1ccc([N+](=O)[O-])cc1		100 µg	0 mm
CS(=O)(=O)c1nc(N)c(C#N)c(/C=C\c2ccccc2)n1	MTCC 282	100 µg/mL	20 mm
Clc1ccccc1NCc1cc2ccccc2nc1Cl	MTCC 281	200 µg/mL	13.9 mm
O=C1CC(c2ccccc2)CC2=C1C(c1ccc(C3C4=C(CC(c5ccccc5)CC4=O)OC4=C3C(=O)CC(c3ccccc3)C4)cc1)C1=C(CC(c3ccccc3)CC1=O)O2	ATCC 10949	40 µg/disc	0 mm
CS(=O)(=O)c1nc(N)c(C#N)c(-c2ccccc2[N+](=O)[O-])n1	MTCC 282	25 µg/mL	19 mm
O=[N+]([O-])c1ccc(NCc2cc3ccccc3nc2Cl)cc1	MTCC 281	200 µg/mL	8.06 mm

An empty or dashed field is not shown. Lines come from different laboratories, so protocols vary.